Laboratory results taken from US20090297520A1.

Experiments:
[1] = target: human Kv1.1 (human) (UniProt Q09470); experiment: cell-based or functional assay
[2] = target: human Kv1.3 (human) (UniProt P22001); experiment: cell-based or functional assay

Substance: Fc-L10-OSK1[K7S, E16K, K20D] (Fc fusion)
- hKv1.1: IC50 [pM], whole cell patch clamp [1]: 10000 pM

Substance: Fc-L10-OSK1[K7S] (Fc fusion)
- hKv1.1/hKv1.3 (ratio of IC50s, reference hKv1.3) [1]: 269
- hKv1.1: IC50 [pM], whole cell patch clamp [1]: 100000 pM
- fold change in selectivity (Kv1.1/Kv1.3) against Fc-L10-OSK1 [2]: 1.3 fold
- fold less potent than the synthetic OSK1 toxin peptide [2]: 10 fold
